Only a part is listed here, and it is no random draw. Active and inactive are the calls of the source. Cut-off read from the data, not from the text of the source: active = inhibition above about 30%; inconclusive = no clear call, values can overlap the other calls; inactive = below that.

In the assay the target is Lethal factor (Bacillus anthracis) (UniProt P15917). The assay can be described thus: Bacillus anthracis LF protease inhibitors, primary screen, biochemical, multiplex microsphere, MLPCN library (AID 588501). Note: plate controls were buffer without enzyme for full effect and enzyme alone for no effect. To be noted: multiplex microsphere protease cleavage assay, at 10 µM, hits give high values.
For the compound `CP(=O)(Nc1ccccc1Br)Oc1ccccc1` (stereo unspecified), the inhibition was inactive: 3.8%. For `CP(=S)(Nn1cnnc1)Oc1ccccc1` (stereo unspecified) the value was inactive: 0.6%; for `CCCCOc1ccc(C(=O)NCC2(N3CCCCC3)CCCCC2)cc1OC`, inactive: 12.1%. In the case of `CP(=O)(Nc1ccccn1)Oc1ccc(Cl)cc1` (stereo unspecified), the inhibition was inactive: -0.1%. For `CCOP(C)(=S)SCC(=O)NC(C)C(=O)O` (stereo unspecified) the value was inactive: 0.2%. `CCOC(=O)c1ccc(NP(C)(=O)Oc2ccc(OC)cc2)cc1` (stereo unspecified): the inhibition is inactive: -2.9%.

Consider `CP(=O)(NC(=O)Nc1ccccc1)Oc1ccccc1` (stereo unspecified), for which the inhibition is inactive: -2.8%. Regarding `CCc1ccc(OP(C)(=O)N2CCN(c3ccc([N+](=O)[O-])cc3)CC2)cc1` (stereo unspecified), the inhibition was inactive: 16.1%. `Cc1cc(C)cc(OP(C)(=O)Nc2ccc(SC(F)(F)F)cc2)c1` (stereo unspecified): the inhibition is inactive: -3%. Regarding `Cc1cccc(C)c1OP(C)(=O)Nc1ccc(SC(F)(F)F)cc1` (stereo unspecified), the inhibition was inactive: 0.7%. For `Cc1ccc(Nc2c([N+](=O)[O-])cc([N+](=O)[O-])cc2[N+](=O)[O-])cc1` the value was inactive: -1.8%; for `CP(=O)(Nc1ccc(SC(F)(F)F)cc1)Oc1ccc(Cl)cc1` (stereo unspecified), inactive: -2.3%. On to `CP(=O)(Oc1ccccc1)OC(c1ccccc1)C(F)(F)F` (stereo unspecified), for which the inhibition is inactive: -5.2%. Turning to `COc1ccccc1-c1ccccn1.O=[N+]([O-])c1cc([N+](=O)[O-])c(O)c([N+](=O)[O-])c1`, the inhibition is inactive: -7.3%.

As to `CCN(CC)CCCOC(=O)C(O)(c1ccccc1)c1ccccc1`, the inhibition was inactive: -2.9%. Turning to `COc1ccccc1OP(C)(=O)Nc1cc(Cl)ccc1C` (stereo unspecified), the inhibition is inactive: -4.8%. With `COc1ccc(OP(C)(=O)Nc2cccc(F)c2)cc1` (stereo unspecified), the inhibition is inactive: 0.7%. Then `Cc1cc(C)cc(OP(C)(N)=O)c1` (stereo unspecified), with inactive: 3.2%; and `CCOC(=O)c1ccc(NP(C)(=O)Oc2ccccc2)cc1` (stereo unspecified), with inactive: -0.9%. Then `COc1ccccc1OP(C)(=O)Nc1ccc(C)cc1` (stereo unspecified), with inactive: -2.2%; and `Cc1ccc(NP(C)(=O)Oc2ccccc2)c(C)c1` (stereo unspecified), with inactive: 1.5%; and `CC(C)(C)c1ccc(OP(C)(=O)Nc2ccc(SC(F)(F)F)cc2)cc1` (stereo unspecified), with inactive: 1.4%. In the case of `Cc1cccc(C)c1OP(C)(N)=O` (stereo unspecified), the inhibition is inactive: 0.1%. For the compound `O=[N+]([O-])c1ccc2c(c1)C=Nc1ccccc1O2`, the inhibition is inactive: -1.3%. Consider `O=[N+]([O-])c1cc([N+](=O)[O-])c(Nc2cccnc2)c([N+](=O)[O-])c1`, for which the inhibition was inactive: -17.8%. With `COc1cc(C(=O)NCC2(N3CCOCC3)CCCCC2)ccc1OCC(C)C`, the inhibition was inactive: -2.1%.

These data come from PubChem BioAssay AID588501 (NMMLSC, 2011).
